Compound potency records, mixed from different reports. Data source: NIAID ChemDB in PubChem.

ECn is the concentration giving n% inhibition of infection, replication or growth. ICn: concentration for n% inhibition. Blank or dashed fields: not listed here. Inhibition is in % at the dose shown (toxicity tests: loss of growth or viability). A number after MIC or MFC names an inhibition level or a share of isolates. Conditions beyond the fields shown may differ between rows. a–b is a range or a potency band. CCn is the concentration with n% toxicity to the cells.

COc1ccccc1-c1cc(-c2cccc(Cl)c2)n2nc(C(=O)O)cc2n1 ; protein: RNA-dependent RNA polymerase ; read-out: IC50 ; species: Hepatitis C virus ; kind: target ; result: >10 µM
Fc1ccc(N2CCCCC2)c(NC(=S)c2ccncc2)c1 ; protein: CK1e ; method: kinase activity ; read-out: inhibition ; tested at: 10 µM ; kind: host protein ; result: -1.2%
O=C(NCCc1ccc2c(n1)NCCC2)Nc1c(F)ccc2c1OCOC2 ; cells: PBMC ; read-out: CC50 ; kind: toxicity ; result: 50 µM
Cc1ccnc2c1NC(=O)c1cccnc1N2C1CC1 ; protein: DNA polymerase gamma ; read-out: IC50 ; species: Human ; kind: host protein ; result: >24 µM
Nc1nc(N)c2c(CNc3cc(Cl)c(-n4cccc4)c(Cl)c3)csc2n1 ; protein: Dihydrofolate reductase ; strain: TYPE 2 ; read-out: IC50 ; species: Cryptosporidium parvum ; kind: target ; result: >10 µM
Oc1cccc(C=Nc2ccccc2O)c1 ; strain: LMM 820 ; read-out: MIC99 ; species: Cryptococcus neoformans ; kind: culture ; result: 2.8 µg/mL
O=C(Nc1c(S(=O)(=O)[O-])cc2cc(S(=O)(=O)[O-])cc(O)c2c1O)c1ccccc1 ; method: cytopathic effect ; cells: Human embryonic lung cells ; strain: TYPE 3 ; read-out: inhibition ; species: Adenovirus ; tested at: 10 µg/mL ; kind: culture ; result: 90%
Cc1cc(CCCOc2c(C)cc(-c3noc(C(F)(F)F)n3)cc2C)on1 ; method: cytopathic effect / visual reading ; cells: OHIO HELA-I ; strain: Isolate 34 ; read-out: EC50 ; species: Rhinovirus ; kind: culture ; result: 0.01 µg/mL
Nc1nc(N)c2c(n1)CCC(Cc1ccc(Cl)c(Cl)c1)C2 ; protein: Dihydrofolate reductase ; strain: TYPE 1 ; read-out: IC50 ; species: Cryptosporidium parvum ; kind: target ; result: 0.065 µM
Cc1cccc(S(=O)(=O)NCCc2ccc3c(n2)NCCC3)c1 ; cells: PBMC ; read-out: CC50 ; kind: toxicity ; result: 50 µM
O=c1cc(NCC(c2ccccc2)N2CCOCC2)c2cccnc2n1O ; cells: HeLa ; read-out: CC50 ; kind: toxicity ; result: <100 µM
CC(C)N(Cc1cccc(OCCCCCC(=O)OC(=O)O)c1)C(=O)c1ccc(-c2cccc3ccccc23)cc1 ; cells: BJ ; read-out: CC50 ; kind: toxicity ; result: >20 µM
COc1ccc(OC)c(CC2CCc3nc(N)nc(N)c3C2)c1 ; protein: Dihydrofolate reductase ; strain: TYPE 1 ; read-out: IC50 ; species: Cryptosporidium parvum ; kind: target ; result: 0.33 µM
O=C(O)c1cc2nc(-c3ccc(Oc4cccc(Cl)c4)cc3)c(C3CCCCC3)c(=O)n2[nH]1 ; protein: RNA-dependent RNA polymerase ; read-out: IC50 ; species: Hepatitis C virus ; kind: target ; result: 1–10 µM
Cc1noc(C)c1NC(=O)NCCc1ccc2c(n1)NCCC2 ; cells: PBMC ; read-out: CC50 ; kind: toxicity ; result: 50 µM
COc1ccccc1CC1CCc2nc(N)nc(N)c2C1 ; protein: Dihydrofolate reductase ; strain: TYPE 2 ; read-out: IC50 ; species: Cryptosporidium parvum ; kind: target ; result: 0.18 µM
c1ccc(CNc2ccc(-c3c(C4CCCCC4)cnc4c(-c5nn[nH]n5)cnn34)cc2)cc1 ; protein: RNA-dependent RNA polymerase ; read-out: IC50 ; species: Hepatitis C virus ; kind: target ; result: 1–10 µM
CCOC(=O)CCCCCOc1cccc(CN(C(=O)c2ccc(-c3cc(OC)cc(OC)c3)cc2)C(C)C)c1 ; cells: HEK 293 ; read-out: CC50 ; kind: toxicity ; result: >20 µM
CCOC(=O)c1c(C)nc(OCCCNc2ccnc3cc(Cl)ccc23)nc1-c1ccccc1 ; strain: LMM 818 ; read-out: MIC99 ; species: Cryptococcus gattii ; kind: culture ; result: 11.3 µg/mL
O=C(Cn1c(-c2nccs2)nc2ccccc21)Nc1ccc(Cl)cc1 ; protein: IMPDH2 ; method: fluorescence / absorbance ; read-out: inhibition ; species: Human ; tested at: 5 µM ; kind: host protein ; result: ≤10%
CCOC(=O)c1c(C)nc(NCCCNc2ccnc3cc(Cl)ccc23)nc1-c1ccccc1 ; strain: 1913 ER ; read-out: MIC99 ; species: Cryptococcus gattii ; kind: culture ; result: 8 µg/mL
CCOC(=O)CCCCCOc1cccc(CN(C(=O)c2ccc(-c3cccc(OCC(C)C)c3)cc2)C(C)C)c1 ; cells: RAJI ; read-out: CC50 ; kind: toxicity ; result: >20 µM
COc1cc(NCc2cnc3nc(N)nc(N)c3n2)cc(OC)c1OC ; protein: Dihydrofolate reductase ; strain: TYPE 2 ; read-out: IC50 ; species: Cryptosporidium parvum ; kind: target ; result: 1.3 µM
CCOC(=O)CCCCCOc1cccc(CN(C(=O)c2ccc(-c3cccc(Cl)c3)cc2)C(C)C)c1 ; cells: BJ ; read-out: CC50 ; kind: toxicity ; result: <13.5 µM
O=c1cc(N2CCc3ccc(-c4ccc(F)cc4)cc3C2)c2cccnc2n1O ; cells: HeLa ; read-out: CC50 ; kind: toxicity ; result: <100 µM
CCOC(=O)CCCCCOc1cccc(CN(C(=O)c2ccccc2)C(C)C)c1 ; cells: HEK 293 ; read-out: CC50 ; kind: toxicity ; result: >20 µM
O=c1cc(N[C@H]2CCN(Cc3ccccc3)C2)c2cccnc2n1O ; cells: HeLa ; read-out: CC50 ; kind: toxicity ; result: <100 µM
O=C(Cn1c(-c2nccs2)nc2ccccc21)Nc1ccc(Cl)c(Cl)c1 ; protein: IMPDH2 ; method: fluorescence / absorbance ; read-out: inhibition ; species: Human ; tested at: 2 µM ; kind: host protein ; result: ≤20%
O=C1N[C@@H](c2ccccc2)CNc2c1c(=O)n(O)c1ncccc21 ; cells: HeLa ; read-out: CC50 ; kind: toxicity ; result: <100 µM
Nc1ccc2c(O)cc(S(=O)(=O)[O-])cc2c1S(=O)(=O)[O-] ; method: cytopathic effect ; cells: Human embryonic lung cells ; strain: TYPE 3 ; read-out: inhibition ; species: Adenovirus ; tested at: 10 µg/mL ; kind: culture ; result: 50%
c1ccc(Oc2cccc(-c3cnc4c(-c5nn[nH]n5)cnn4c3C3CCCCC3)c2)nc1 ; protein: RNA-dependent RNA polymerase ; read-out: IC50 ; species: Hepatitis C virus ; kind: target ; result: 1–10 µM
CCOC(=O)CCCCCOc1cccc(CN(C(=O)c2ccc(-c3cccc(S(C)(=O)=O)c3)cc2)C(C)C)c1 ; cells: BJ ; read-out: CC50 ; kind: toxicity ; result: >20 µM
CCOC(=O)c1c(C)nc(NCCCCNc2ccnc3cc(Cl)ccc23)nc1-c1ccccc1 ; strain: 29/10893 ; read-out: MIC99 ; species: Cryptococcus gattii ; kind: culture ; result: 4 µg/mL
Nc1nc(N)c2nc(CN3c4ccccc4Sc4ccccc43)cnc2n1 ; protein: Dihydrofolate reductase ; strain: TYPE 1 ; read-out: IC50 ; species: Cryptosporidium parvum ; kind: target ; result: 1.8 µM
O=S(=O)([O-])c1ccc2c(S(=O)(=O)[O-])cc(S(=O)(=O)[O-])cc2c1 ; method: cytopathic effect ; cells: Human amnion AV3 cells ; read-out: inhibition ; species: Herpes simplex virus ; tested at: 10 µg/mL ; kind: culture ; result: 0%
COc1ccc(-c2cnc3cc(C(=O)O)nn3c2C2CCCCC2)cc1 ; protein: RNA-dependent RNA polymerase ; read-out: IC50 ; species: Hepatitis C virus ; kind: target ; result: >10 µM
O=C(NCCc1ccc2c(n1)NCCC2)NCc1cccnc1 ; cells: PBMC ; read-out: CC50 ; kind: toxicity ; result: 50 µM
O=C(N[C@H](C(=O)O)c1ccc(O)cc1)c1cc2nc(-c3ccco3)c(C3CCCCC3)c(=O)n2[nH]1 ; protein: RNA-dependent RNA polymerase ; read-out: IC50 ; species: Hepatitis C virus ; kind: target ; result: <1 µM
O=C(NCCc1ccc2c(n1)NCCC2)NCc1cccc(F)c1 ; cells: PBMC ; read-out: CC50 ; kind: toxicity ; result: 50 µM
CCOC(=O)c1ccc(OCCC2CCN(c3ccc(C)nn3)CC2)cc1 ; method: neutral red ; cells: KB ; strain: 363 (ICAM-1 receptor group 32) ; read-out: EC50 ; species: Rhinovirus ; kind: culture ; result: 8.13 µM
NS(=O)(=O)O ; method: cytopathic effect ; cells: Human embryonic lung cells ; strain: TYPE 3 ; read-out: inhibition ; species: Adenovirus ; tested at: 5 µg/mL ; kind: culture ; result: 0%
CC(C)N(Cc1cccc(OCCCCCC(=O)OC(=O)O)c1)C(=O)c1ccc(-c2cccc(Cl)c2)cc1 ; cells: RAJI ; read-out: CC50 ; kind: toxicity ; result: >20 µM
FC(F)(F)Oc1ccc(Oc2ccc(-c3cnc4c(-c5nn[nH]n5)cnn4c3C3CCCCC3)cc2)cc1 ; protein: RNA-dependent RNA polymerase ; read-out: IC50 ; species: Hepatitis C virus ; kind: target ; result: 1–10 µM
COc1c(-c2ccc3cc(NS(C)(=O)=O)ccc3c2)cc(-n2ccc(=O)[nH]c2=O)cc1C(C)(C)C ; protein: Human polymerase beta ; read-out: IC50 ; kind: host protein ; result: >100 µM
Cc1cccc(Cl)c1NC(=O)NCCc1ccc2c(n1)NCCC2 ; cells: PBMC ; read-out: CC50 ; kind: toxicity ; result: 50 µM
O=[N+]([O-])c1ccc(C=Nc2ccccc2O)cc1 ; method: broth dilution ; strain: VM-MCMMPI ; read-out: MIC ; species: Cryptococcus neoformans ; kind: culture ; result: 32 µg/mL
CCOC(=O)CCCCCOc1cccc(CN(C(=O)c2ccc(-c3cccc(Br)c3)cc2)C(C)C)c1 ; cells: RAJI ; read-out: CC50 ; kind: toxicity ; result: >20 µM
O=C1C(c2[nH]c3ccc(S(=O)(=O)O)cc3c2O)=Nc2ccc(S(=O)(=O)O)cc21 ; method: cytopathic effect ; cells: Human amnion AV3 cells ; read-out: inhibition ; species: Herpes simplex virus ; tested at: 50 µg/mL ; kind: culture ; result: 0%
O=C(NCCc1ccc2c(n1)NCCC2)NC1CCCCC1 ; cells: PBMC ; read-out: CC50 ; kind: toxicity ; result: 50 µM
COc1cc(CCCN2CCc3nc(N)nc(N)c3C2)cc(OC)c1OC ; protein: Dihydrofolate reductase ; strain: TYPE 1 ; read-out: IC50 ; species: Cryptosporidium parvum ; kind: target ; result: >10 µM
Nc1cc(S(=O)(=O)[O-])cc2cc(S(=O)(=O)[O-])ccc12 ; method: cytopathic effect ; cells: Human amnion AV3 cells ; strain: TYPE 3 ; read-out: inhibition ; species: Adenovirus ; tested at: 10 µg/mL ; kind: culture ; result: 0%
Cc1nc(NCCCCNc2ccnc3cc(Cl)ccc23)nc(-c2ccccc2)c1C(=O)OC(C)C ; strain: 196L/03 ; read-out: MIC99 ; species: Cryptococcus gattii ; kind: culture ; result: 8 µg/mL
O=C(NCCc1nccc(-n2ccnc2)n1)Nc1cccc(F)c1 ; cells: PBMC ; read-out: CC50 ; kind: toxicity ; result: 50 µM
O=C(O)c1cc2nc(-c3ccc(OCc4ccccc4)cc3)cc(-c3cccc(Cl)c3)n2n1 ; protein: RNA-dependent RNA polymerase ; read-out: IC50 ; species: Hepatitis C virus ; kind: target ; result: 1–10 µM
Nc1ccc2cc(S(=O)(=O)O)cc(S(=O)(=O)O)c2c1 ; method: cytopathic effect ; cells: Human amnion AV3 cells ; read-out: inhibition ; species: Rhinovirus ; tested at: 5 µg/mL ; kind: culture ; result: 7%

The last 8 rows once more:

structure | protein | method | cells | strain | read-out | species | tested at | kind | result
O=C1C(c2[nH]c3ccc(S(=O)(=O)O)cc3c2O)=Nc2ccc(S(=O)(=O)O)cc21 |  | cytopathic effect | Human amnion AV3 cells |  | inhibition | Herpes simplex virus | 50 µg/mL | culture | 0%
O=C(NCCc1ccc2c(n1)NCCC2)NC1CCCCC1 |  |  | PBMC |  | CC50 |  |  | toxicity | 50 µM
COc1cc(CCCN2CCc3nc(N)nc(N)c3C2)cc(OC)c1OC | Dihydrofolate reductase |  |  | TYPE 1 | IC50 | Cryptosporidium parvum |  | target | >10 µM
Nc1cc(S(=O)(=O)[O-])cc2cc(S(=O)(=O)[O-])ccc12 |  | cytopathic effect | Human amnion AV3 cells | TYPE 3 | inhibition | Adenovirus | 10 µg/mL | culture | 0%
Cc1nc(NCCCCNc2ccnc3cc(Cl)ccc23)nc(-c2ccccc2)c1C(=O)OC(C)C |  |  |  | 196L/03 | MIC99 | Cryptococcus gattii |  | culture | 8 µg/mL
O=C(NCCc1nccc(-n2ccnc2)n1)Nc1cccc(F)c1 |  |  | PBMC |  | CC50 |  |  | toxicity | 50 µM
O=C(O)c1cc2nc(-c3ccc(OCc4ccccc4)cc3)cc(-c3cccc(Cl)c3)n2n1 | RNA-dependent RNA polymerase |  |  |  | IC50 | Hepatitis C virus |  | target | 1–10 µM
Nc1ccc2cc(S(=O)(=O)O)cc(S(=O)(=O)O)c2c1 |  | cytopathic effect | Human amnion AV3 cells |  | inhibition | Rhinovirus | 5 µg/mL | culture | 7%